These results are taken from article PMC12166091.

Construct, isoform or probe ends are uncertain for at least one entry.

For this data set, the system named is GST-SLBP (human). The data set can be described thus: EMSA. The following applies: recombinant protein, protein details: N-terminal GST, label: 3' biotin.

Consider “AUGUCGUAUACAGGGCUUU [-1 PRF RNA truncated mutant I]”, for which the binding result (strongest among the truncated probes) is listed as “binds”. On to “GUGCGGCACAGGCACUAGUACUG [-1 PRF RNA truncated mutant III]”, for which the binding result is reported as “binds”. Same read-out and setting: the value for “CACAAUCGUUUUUAAACG [-1 PRF RNA truncated mutant II]” was “binds”.
